A mixed list of measured activities; the numbers were collected in NIAID ChemDB.

All rows: whole-cell or culture tests; organism: Rhinovirus; endpoint: EC50

ECn is the concentration giving n% inhibition of infection, replication or growth. Conditions beyond the fields shown may differ between rows.

structure | cells | strain | method | value
CSc1nsc(-c2ccc(OCCCOc3ccc([N+](=O)[O-])cc3)cc2)c1C#N | HELA-OHIO | Serotype 72 (group A) | cytopathic effect | >1 µM
CC(=O)Nc1ccc(Cn2cnc3c(Nc4cccc(F)c4)nc(C(F)(F)F)nc32)cc1 | M-HELA | Serotype 5 | plaque count | >80 µM
CN(C)c1ccc(Cn2cnc3c(N(C)C)nc(C(F)(F)F)nc32)cc1 | M-HELA | Serotype 8 | plaque count | >8 µM
CSc1nsc(-c2ccc(OCc3ccccc3)cc2)c1C#N | HELA-OHIO | Serotype 51 (group B) | cytopathic effect | 19 µM
COC(=O)c1cc(CCCOc2c(C)cc(-c3noc(C)n3)cc2C)on1 | HeLa | Serotype 15 | cytopathic effect | 0.148 µg/mL
CN(C)c1nc(C(F)(F)F)nc2c1ncn2Cc1ccc(F)cc1 | M-HELA | Serotype 13 | plaque count | >8 µM
CSc1nsc(-c2ccc(OCc3ccccc3)cc2)c1C#N | HELA-OHIO | Serotype 63 (group B) | cytopathic effect | 10 µM
COc1ccc(-c2snc(SC)c2C#N)cc1 | HELA-OHIO | Serotype 15 (group B) | cytopathic effect | >12 µM
CCOc1cc(CCCOc2c(C)cc(-c3noc(C)n3)cc2C)on1 | HeLa | Serotype 1B | cytopathic effect | 0.015 µg/mL
CSc1nsc(-c2ccc(OCCOc3ccc(C#N)cc3)cc2)c1C#N | HELA-OHIO | Serotype 41 (group B) | cytopathic effect | >2 µM
CCOC(=O)/C=C/[C@H](C[C@@H]1CCNC1=O)NC(=O)[C@@H](CC(=O)[C@@H](NC(=O)c1cc(C)on1)C(C)C)Cc1ccc(F)cc1 | OHIO HELA-I | Isolate 42 | cytopathic effect / visual reading | 0.02 µg/mL
Cc1cc(CCCCCOc2c(Cl)cc(C3=NCCO3)cc2Cl)on1 | HeLa | TYPE 32 | plaque count | 0.15 µg/mL
CSc1nsc(-c2ccc(OCCOc3ccccc3)cc2)c1C#N | HELA-OHIO | Serotype 45 (group A) | cytopathic effect | >20 µM
Cc1nc(-c2cc(C)c(OCCCc3cc(C4CC4)no3)c(C)c2)no1 | HeLa | Serotype 30 | cytopathic effect | 0.048 µg/mL
CSc1nsc(-c2ccc(OCCCOc3ccccc3)cc2)c1C#N | HELA-OHIO | Serotype 29 (group B) | cytopathic effect | >20 µM
CN(C)c1nc(C(F)(F)F)nc2c1ncn2Cc1ccc(Cl)c(N)c1 | M-HELA | Serotype 21 | plaque count | >8 µM
Fc1cccc(Cn2cnc3c(Nc4cccc(F)c4)nc(C(F)(F)F)nc32)c1 | M-HELA | Serotype 27 | plaque count | >5 µM
CN(C)c1nc(C(F)(F)F)nc2c1ncn2Cc1ccc(S(C)(=O)=O)cc1 | M-HELA | Serotype 8 | plaque count | >8 µM
CSc1nsc(-c2ccc(OCCCc3ccccc3)cc2)c1C#N | HELA-OHIO | Serotype 45 (group A) | cytopathic effect | >20 µM
CC(C)Oc1ccc(Cn2cnc3c(N(C)C)nc(C(F)(F)F)nc32)cc1 | M-HELA | Serotype 1B | plaque count | 1 µM
CCO/N=C/c1ccc(OCCC2CCN(c3ccc(Cl)nn3)CC2)cc1 | KB | B632 (LDL receptor group 1B) | neutral red | 0.009 µM
CSc1nsc(-c2ccccc2)c1C#N | HELA-OHIO | Serotype 14 (group A) | cytopathic effect | >80 µM
Cc1ccc(Cn2cnc3c(N(C)C)nc(C(F)(F)F)nc32)cc1C | M-HELA | Serotype 21 | plaque count | >8 µM

3 of the rows above, restated:

structure,cells,strain,method,value
CCOC(=O)/C=C/[C@H](C[C@@H]1CCNC1=O)NC(=O)[C@@H](CC(=O)[C@@H](NC(=O)c1cc(C)on1)C(C)C)Cc1ccc(F)cc1,OHIO HELA-I,Isolate 42,cytopathic effect / visual reading,0.02 µg/mL
Cc1cc(CCCCCOc2c(Cl)cc(C3=NCCO3)cc2Cl)on1,HeLa,TYPE 32,plaque count,0.15 µg/mL
CN(C)c1nc(C(F)(F)F)nc2c1ncn2Cc1ccc(Cl)c(N)c1,M-HELA,Serotype 21,plaque count,>8 µM